A mixed list of measured activities; the numbers were collected in NIAID ChemDB.

All rows: target-level tests

ICn: concentration for n% inhibition. Two numbers with a dash give a range or band. Fold resistance has wild type as its base. Blank or dashed fields: not listed here. Rows are shuffled and stem from different studies. Inhibition is in % at the dose shown (toxicity tests: loss of growth or viability).

SMILES,read by,protein,strain,tested at,measure,organism,mutations,result
COc1ccccc1N1CCN(c2cncc(-c3ccoc3)n2)CC1,-,UL97 kinase,-,1 µM,inhibition,Cytomegalovirus,-,<50%
O=C(O)c1cnn2c(-c3ccccc3)c(-c3ccc(Oc4ccccc4)cc3)cnc12,-,RNA-dependent RNA polymerase,-,-,IC50,Hepatitis C virus,-,>10 µM
COc1ccc(CC2CCc3nc(N)nc(N)c3C2)cc1OC,-,Dihydrofolate reductase,TYPE 1,-,IC50,Cryptosporidium parvum,-,0.4 µM
O=C(NC(Cc1c[nH]c2ccc(O)cc12)C(=O)O)c1ccc2c(c1)nc(-c1ccc3nc(-c4cc(C(=O)N5CCCC5)ccc4-c4ccc(Cl)cc4)cnc3c1)n2C1CCCCC1,-,NS5B polymerase,-,100 µM,inhibition,Hepatitis C virus,-,99.5%
O=C(O)c1cc2nc(-c3ccc(Oc4ccccc4)cc3)cc(-c3ccccc3)n2n1,-,RNA-dependent RNA polymerase,-,-,IC50,Hepatitis C virus,-,>10 µM
Cc1cc(C)cc(-c2cncc(N3CCN(c4ccccc4)CC3)n2)c1,-,UL97 kinase,-,-,IC50,Cytomegalovirus,-,<100 µM
CS(=O)(=O)c1ccc(-c2ccc(-c3cnc4c(-c5nn[nH]n5)cnn4c3C3CCCCC3)cc2)cc1,-,RNA-dependent RNA polymerase,-,-,IC50,Hepatitis C virus,-,1–10 µM
c1ccc(-c2cncc(N3CCN(c4ccncc4)CC3)n2)cc1,-,UL97 kinase,-,-,IC50,Cytomegalovirus,-,<10 µM
O=C(NC(Cc1cnc[nH]1)C(=O)O)c1ccc2c(c1)nc(-c1ccc3nc(-c4ccccc4)cnc3c1)n2C1CCCCC1,-,NS5B polymerase,-,33 µM,inhibition,Hepatitis C virus,-,66.78%
Oc1ccc(-c2cncc(N3CCN(c4ccncc4)CC3)n2)cc1,-,UL97 kinase,-,-,IC50,Cytomegalovirus,-,<100 µM
COCCNC(=O)c1cc2nccc(-c3ccc(-c4ccc(OC)cc4)cc3)n2n1,-,RNA-dependent RNA polymerase,-,-,IC50,Hepatitis C virus,-,1–10 µM
CN(Cc1ccc2nc(N)nc(N)c2n1)c1ccc(Cl)cc1,-,Dihydrofolate reductase,TYPE 2,-,IC50,Cryptosporidium parvum,-,9.1 µM
COCCOc1ccc(-c2ccccc2)c(-c2ccc3cc(-c4nc5cc(C(=O)O)ccc5n4C4CCCCC4)ccc3n2)c1,-,NS5B polymerase,-,100 µM,inhibition,Hepatitis C virus,-,96.65%
CS(=O)(=O)Nc1cn2c(c(O)c1=O)C(=O)N(Cc1ccc(F)c(Cl)c1)CC2,ELISA,Integrase,-,-,IC50,HIV-1,-,<0.01 µM
CN(C)c1ccc(-c2nc3ccc(-c4nc5cc(C(=O)O)ccc5n4C4CCCCC4)cc3nc2-c2ccc(N(C)C)cc2)cc1,-,NS5B polymerase,-,33 µM,inhibition,Hepatitis C virus,-,100%
COc1ccccc1N1CCN(c2cncc(-c3ccc(C(F)(F)F)cc3)n2)CC1,-,UL97 kinase,-,10 µM,inhibition,Cytomegalovirus,-,>15%
O=C(O)c1ccc2c(c1)nc(-c1ccc3nc(-c4cc([N+](=O)[O-])ccc4-c4ccc(Cl)cc4)ccc3c1)n2C1CCCCC1,-,NS5B polymerase,-,100 µM,inhibition,Hepatitis C virus,-,97.03%
FC(F)(F)c1cccc(N2CCN(c3cncc(-c4ccccc4Oc4ccccc4)n3)CC2)c1,-,UL97 kinase,-,10 µM,inhibition,Cytomegalovirus,-,>15%
COc1cc(CC2CCc3nc(N)nc(N)c3C2)cc(OC)c1OC,-,Dihydrofolate reductase,TYPE 1,-,IC50,Cryptosporidium parvum,-,0.56 µM
O=C1c2c(O)c(=O)c(-c3ccncn3)cn2CCN1Cc1ccc(F)c(Cl)c1,ELISA,Integrase,-,-,IC50,HIV-1,-,0.01–0.1 µM
COc1cc(Cc2sc3nc(N)nc(N)c3c2C)cc(OC)c1OC,-,Dihydrofolate reductase,TYPE 1,-,IC50,Cryptosporidium parvum,-,2.3 µM
Cn1c2ccc(Cl)cc2c2cc(-c3ccc4cc(-c5nc6cc(C(=O)O)ccc6n5C5CCCCC5)ccc4n3)ccc21,-,NS5B polymerase,-,33 µM,inhibition,Hepatitis C virus,-,95.99%
CC(C)C(=O)c1cc(=O)c(O)c2n1CCN(Cc1ccc(Cl)c(Cl)c1)C2=O,ELISA,Integrase,-,-,IC50,HIV-1,-,<0.01 µM
O=C(O)c1cnc2c(c1)nc(-c1ccc3nc(-c4ccccc4Br)ccc3c1)n2C1CCCCC1,-,NS5B polymerase,-,33 µM,inhibition,Hepatitis C virus,-,92.43%
Nc1ccn([C@@H]2CS[C@H](COP(=O)(O)OP(=O)(O)OP(=O)(O)O)O2)c(=O)n1,radiometric,Reverse transcriptase,-,-,fold resistance,HIV,RT-L74V,1.7
NC(=O)CNC(=O)c1ccc(-c2ccc(Cl)cc2)c(-c2ccc3cc(-c4nc5cc(C(=O)O)ccc5n4C4CCCCC4)ccc3n2)c1,-,NS5B polymerase,-,33 µM,inhibition,Hepatitis C virus,-,100%
COc1cccc(-c2ccccc2-c2ccnc3cc(C(=O)O)nn23)c1,-,RNA-dependent RNA polymerase,-,-,IC50,Hepatitis C virus,-,>10 µM
CC1Cn2ccc(=O)c(O)c2C(=O)N1Cc1ccc(Cl)c(Cl)c1,ELISA,Integrase,-,-,IC50,HIV-1,-,0.01–0.1 µM
COCCOc1cccc(-c2ccc3cc(-c4nc5cc(C(=O)O)ccc5n4C4CCCCC4)ccc3n2)c1,-,NS5B polymerase,-,33 µM,inhibition,Hepatitis C virus,-,96.88%
CC1(C)Cn2ccc(=O)c(O)c2C(=O)N1Cc1ccc(Cl)c(Cl)c1,ELISA,Integrase,-,-,IC50,HIV-1,-,0.01–0.1 µM
COc1cccc(-c2cc(-c3ccc(Oc4ccccc4)cc3)nc3cc(C(=O)O)nn23)c1,-,RNA-dependent RNA polymerase,-,-,IC50,Hepatitis C virus,-,1–10 µM
Cn1ncnc1-c1cn2ccn(Cc3cccc(Cl)c3)c(=O)c2c(O)c1=O,ELISA,Integrase,-,-,IC50,HIV-1,-,<0.01 µM
c1ccc2sc(-c3cncc(N4CCN(c5ccncc5)CC4)n3)cc2c1,-,UL97 kinase,-,-,IC50,Cytomegalovirus,-,<1 µM
Cc1cc(=O)c(O)c2n1CCN(Cc1ccc(Cl)c(Cl)c1)C2=O,ELISA,Integrase,-,-,IC50,HIV-1,-,0.01–0.1 µM
CC(=O)c1ccccc1-c1cncc(N2CCN(c3cccc(Cl)c3)CC2)n1,-,UL97 kinase,-,-,IC50,Cytomegalovirus,-,<100 µM
Cn1ccnc1-c1cn2ccn(Cc3cccc(Cl)c3)c(=O)c2c(O)c1=O,ELISA,Integrase,-,-,IC50,HIV-1,-,0.01–0.1 µM
O=C(N[C@H](Cc1ccccc1)C(=O)O)c1cc2nc(-c3ccc(Cl)cc3)cc(-c3ccc(Oc4ccccc4)cc3)n2n1,-,RNA-dependent RNA polymerase,-,-,IC50,Hepatitis C virus,-,1–10 µM
O=C1c2c(O)c(=O)c(-c3nccs3)cn2CCN1CCCc1ccccc1,ELISA,Integrase,-,-,IC50,HIV-1,-,0.01–0.1 µM
Cc1cccc(-c2cncc(N3CCN(c4ccccn4)CC3)n2)c1,-,UL97 kinase,-,10 µM,inhibition,Cytomegalovirus,-,>15%
CO/N=C\c1cnn2c(C3CCCCC3)c(-c3ccc(OCc4ccccc4)cc3)cnc12,-,RNA-dependent RNA polymerase,-,-,IC50,Hepatitis C virus,-,>10 µM